## PSTVd loop 15 mutant pool in Nicotiana benthamiana

The pool varies loop 15 of the PSTVd intermediate strain in the pattern GGAAACCGNNNNNNC; wild type is GGAAACCGCUACUAC (upper and lower strand joined, each 5' to 3', the first 7 letters being the upper strand, closing pairs included).

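Three N. benthamiana plants were inoculated with the whole mutant pool. Progeny were sequenced from the inoculated region (day 5), the margin of the inoculated leaf (day 10) and systemic leaves (day 12).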

Numbers give reads per thousand; 0 = not seen among the reads, higher = more abundant.
Each value is the mean of three plants.
"Pool" is the share in the plasmid pool used as inoculum, on the same scale.
The inoculated region was read from the minus strand, the other sites from the plus strand.
IR is the inoculated region, LM the leaf margin, Sys the systemic leaves.
Samples held 43,870 to 66,106 reads, so the smallest values rest on one or two reads.

GGAAACCGGACUACC (pool 0.192) read IR 0.0778; LM 0; Sys 0. For GGAAACCGAAAACCC (pool 0.176) the result was IR 0.0965; LM 0.00539; Sys 0. GGAAACCGCUUUAGC (pool 0.272) gave IR 0.0678; LM 0.0141; Sys 0. For GGAAACCGAUAUUGC (pool 0.224) the result was IR 0.426; LM 0.0947; Sys 0.0787. GGAAACCGGUAGUGC (pool 0.208) gave IR 0.346; LM 0.117; Sys 0.0745. For GGAAACCGUGGAUUC (pool 0.208) the result was IR 0.0805; LM 0.0121; Sys 0. For GGAAACCGCAGCAGC (pool 0.208) the result was IR 0.0920; LM 0.00742; Sys 0. GGAAACCGCCGUUGC (pool 0.144) read IR 0.0707; LM 0.00539; Sys 0. With GGAAACCGAAUACGC (pool 0.288) the assay gave IR 0.132; LM 0; Sys 0.

For GGAAACCGCUUCGCC (pool 0.272) the result was IR 0.109; LM 0.0108; Sys 0. With GGAAACCGCUCGCGC (pool 0.304) the assay gave IR 0.0945; LM 0.0175; Sys 0. GGAAACCGUAUUCAC (pool 0.320) gave IR 0.192; LM 0; Sys 0.00504. GGAAACCGGUAGUUC (pool 0.240) gave IR 0.325; LM 0.130; Sys 0.0481. GGAAACCGAUGUACC (pool 0.176) read IR 0.141; LM 0.0141; Sys 0. For GGAAACCGGAUUAUC (pool 0.128) the result was IR 0.0759; LM 0.0195; Sys 0. With GGAAACCGAAACAAC (pool 0.160) the assay gave IR 0.412; LM 0.118; Sys 0.0161. GGAAACCGAUUCAUC (pool 0.224) read IR 0.0820; LM 0; Sys 0. For GGAAACCGAUGGGGC (pool 0.208) the result was IR 0.0940; LM 0.0200; Sys 0.

GGAAACCGCUGUACC (pool 0.192) read IR 0.117; LM 0.00742; Sys 0. GGAAACCGUUCUGUC (pool 0.288) gave IR 0.106; LM 0.00742; Sys 0. With GGAAACCGAGCCCUC (pool 0.176) the assay gave IR 0.103; LM 0; Sys 0.00760.

Sequences that differ at fixed positions probably stem from PCR or sequencing errors, and defective variants can be carried along by functional ones.
Wild type was 33.9 per thousand in the pool and the most common sequence in every sample (inoculated region 202, 200, 159; leaf margin 724, 746, 710; systemic leaves 856, 883, 880).

The measurements come from Wu et al. 2024 (doi:10.1371/journal.ppat.1012142).